Test system: femoral clot
Experiment: Comparison of short Arg-Gly-Asp peptides to disintegrins in dog, femoral clot (Example 7)
Format: in vivo
Method: In this example of thrombi and emboli in a dog, the radioactivity target:background ratios were determined qualitatively by imaging and quantitatively by tissue sampling. Higher ratios are due to the increased target specificity of the radiolabel carrier. Significant measurements presented in this study are the relative ratio of counts from the target tissue (thrombus and pulmonary emboli) to background entities (muscle, vessels blood etc.). […] Thrombus uptake data, such as the percent injected radiolabel dose per gram of thrombus (% id/g thrombus), thrombus-to-blood (=100×% id/g thrombus.div.%id/g blood) and thrombus-to-muscle ratios (=100×%id/g thrombus.div.%id/g muscle) were calculated from the tissue sample count data discussed below.
A female mongrel dog weighing 40 lbs was fasted overnight. The dog was sedated with an intramuscular injection of a mixture of ketamine hydrochloride and acepromazine maleate. General anesthesia was induced with intravenous pentobarbital (20 mg/kg). After shaving and washing the dog's skin, a 3-cm incision was made in the right groin area. Using blunt dissection, a segment of the femoral vein was located and freed from surrounding tissue for a length of 1 inch. An 18-guage angiocath was inserted into the vein, and floppy-tip guide wire was advanced through the angiocath into the vein and advanced to mid-femur (approximately 3 inches). The angiocath was replaced with a longer catheter which extended over the guidewire to mid-thigh. The guidewire was then withdrawn and an embolization coil, consisting of a stainless steel spring enmeshed with Dacron fibers and capable of expanding to a diameter of 8 mm (Cook, Bloomington, Ind.) was introduced into the catheter. The coil was advanced with the guidewire until it emerged from the distal end of the catheter, where it promptly expanded and lodged firmly in the vessel. The catheter and guide wire were withdrawn. The incision was closed with 2-0 silk. This produced a model of deep venous thrombosis.
Twenty-four hours after placement of the coils, anesthesia was induced as before. The urinary bladder was catheterized to collect urine. A large field of view gamma camera (General Electric, Milwaukee, Wis.) was positioned over the dog for an anterior view of the chest. The camera was fitted with a low-energy all-purpose collimator and was set to acquire the 159 keV photopeak of ^123 I with a 20% window. A Macintosh IIx computer was interfaced to the camera using a NucLear Mac A/D board and software (Scientific Imaging, Denver, Colo.). The following radiotracers were injected into a right foreleg vein: 31 μCi of ^125 I-fibrinogen (358 μg), followed by a saline flush and an injection of 4.4 mCi of ^123 I-Bitistatin (90 μg). The ^125 -fibrinogen served as a control, since it has been studied previously in this dog model.
At 2 hours and 45 min. post injection, deep anesthesia was induced by intravenous administration of 30 mg/kg pentobarbital. A blood sample was drawn and 0.3 cc was transferred into each of two pre-weighed tubes. The animal was euthanized with intracardiac injection of KCl saturated solution. The vein segment containing the thrombus was carefully removed and dissected to separate the thrombus, coil, Dacron fibers and vessel wall. Each of these samples was placed on tared paper and weighed (wet weight). […] Each sample was then placed in a counting tube and counted along with a saved aliquot of the injected dose as a standard, in a well counter. […]

^123 I-albolabrin: albolabrin, disintegrin from Trimeresurus albolabris, radioiodinated with ^123 I
AV:CV abnormal (injured) vessel:control vessel label ratio (FC, 4 hrs): 1.3
Percent Injected Dose Per Gram of Thrombus (FC, 4 hrs): 0.0714 % id/g
T:B thrombus:blood ratio (FC, 4 hrs): 9.9
T:M thrombus:muscle ratio (FC, 4 hrs): 42.5
target:background ratios versus medically acceptable range for imaging (T:B at least 4:1 in extremities, 9:1 in chest): medically significant background ratios for imaging of thrombi

From US5380646A, “Thrombus detection using radiolabelled disintegrins” (Temple University of the Commonwealth System of Higher …, priority 1992, dated 1995)
